According to US8071797B2 (priority 2008, dated 2011):
Structures were worked out from names or drawings and are uncertain.

Target: HCV polymerase (NS5B570n-Con1) (Hepatitis C virus genotype 1b, UniProt Q9WMX2)
Assay: HCV NS5B RNA polymerase activity assay
Type: biochemical, HCV Con1 strain
Settings: read-out: IC50 NS5B polymerase assay; Table I
Method: The enzymatic activity of HCV polymerase (NS5B570n-Con1) was measured as the incorporation of radiolabeled nucleotide monophosphates into acid insoluble RNA products. Unincorporated radiolabeled substrate was removed by filtration and scintillant was added to the washed and dried filter plate containing radiolabeled RNA product. The amount of RNA product generated by NS5B570-Con1 at the end of the reaction was directly proportional to the amount of light emitted by the scintillant.
The N-terminal 6-histidine tagged HCV polymerase, derived from HCV Con1 strain, genotype 1b (NS5B570n-Con1) contains a 21 amino acid deletion at the C-terminus relative to the full-length HCV polymerase and was purified from E. coli strain BL21 (DE) pLysS. The construct, containing the coding sequence of HCV NS5B Con1 (GenBank accession number AJ242654) was inserted into the plasmid construct pETI 7b, downstream of a T7 promoter expression cassette and transformed into E. coli. […]
The amount of light emitted from the scintillant was converted to counts per minute (CPM) on a Topcount® plate reader (Perkin-Elmer, Energy Range: Low, Efficiency Mode Normal, Count Time: 1 min, Background Subtract: none, Cross talk reduction: Off).
Data was analyzed in Excel® (Microsoft®) and ActivityBase® (idbsg). […] All data was expressed as a percentage of the positive control. […]

CNC(=O)c1c(-c2ccc(Oc3ccc(F)cc3)cc2)oc2cc(N(CCCC(=O)OC)S(C)(=O)=O)c(C3CC3)cc12 showed an IC50 of 8 nM.
